# Patent publication US20240400620A1, “Compositions Containing Coronavirus Proteins and Epitopes” (priority 2021, published 2024)
# What was measured:
# [1] = tested on: activated CD4+ T cells from OC43-infected HLA-DRB1*0101 Ifnar1^−/− mice; format: cell-based
# [2] = tested on: splenocytes or lung leukocytes from DNA-vaccinated HLA-DRB1*0101 mice; format: cell-based
Sequence,expansion of polyfunctional cross-reactive IFNγ+/TNF+ CD4+ T cells [1],stimulation of IFNγ response (ELISpot) [2]
KRTATKAYNVTQAFG [N261-275],significantly expanded,–
TGRLQSLQTYVTQQL [S998-1012],–,significantly stimulated a response
